Pooled drug test results. Numbers come from NIAID ChemDB, via PubChem.

All rows: enzyme or target tests

Two numbers with a dash give a range or band. ICn: concentration for n% inhibition. Blank or dashed fields: not listed here. Lines come from different laboratories, so protocols vary.

SMILES,method,read-out,protein,agent,strain or isolate,value
O=c1[nH]cnc2c1ncn2[C@@H]1CNC[C@@H]1OCP(=O)(O)O,absorbance,Ki,Hypoxanthine-guanine-xanthine phosphoribosyltransferase,Plasmodium falciparum,-,0.6 µM
Cc1ccc2c(c1)SC(c1cccc(S)c1)C1=C(N2)c2ccccc2C1=O,fluorescence,IC50,NDH2,Plasmodium falciparum,-,>20 µM
Cc1[nH]nc2c1C(c1cc(Cl)cc(-c3ccc(-c4nn[nH]n4)cc3)c1)(C1CCC1)C(C#N)=C(N)O2,absorbance,Ki,Serine hydroxymethyltransferase,Plasmodium falciparum,-,0.145 µM
O=C(/C=C/c1ccccc1[N+](=O)[O-])NCCCCNc1ccnc2cc(Cl)ccc12,fluorescence,IC50,Falcipain-2 (FP2),Plasmodium falciparum,Recombinant,>50 µM
COc1cc(NC(C)CCCN)c2nccc(C)c2c1OCCCCCc1cccs1,nucleotide incorporation,IC50,Hematin,Plasmodium falciparum,-,140 µM
Nc1nc2c(ncn2CC(CO)OCP(=O)(O)O)c(=O)[nH]1,absorbance,Ki,Hypoxanthine-guanine-xanthine phosphoribosyltransferase,Plasmodium falciparum,-,0.6 µM
COc1cc(C)c2c(OCc3cccc(C(F)(F)F)c3)c(OC)cc(NC(C)CCCN)c2n1,nucleotide incorporation,IC50,Hematin,Plasmodium falciparum,-,54 µM
CCCCCn1c(Sc2ccc(C#N)c([N+](=O)[O-])c2)nnc1-c1cccs1,-,IC50,Thioredoxin reductase,Plasmodium falciparum,-,5.2 µM
CN1CCC(NC2=CCC3=NC=C(c4cnn(-c5ccc(F)cn5)c4)[N+]3=N2)CC1,-,IC50,Calcium-dependent protein kinase 1,Plasmodium falciparum,-,0.04 µM
Nc1nc2c(ncn2CCOCCP(=O)(O)O)c(=O)[nH]1,absorbance,Ki,Hypoxanthine-guanine-xanthine phosphoribosyltransferase,Plasmodium falciparum,-,0.1 µM
CC(C)c1ccc(/C=C/C(=O)NCCCCNc2ccnc3cc(Cl)ccc23)cc1,fluorescence,IC50,Falcipain-2 (FP2),Plasmodium falciparum,Recombinant,>50 µM
COc1cc(NC(C)CCCN)c2nccc(C)c2c1OCCCCCc1ccccc1,nucleotide incorporation,IC50,Hematin,Plasmodium falciparum,-,100 µM
N#CCN(CCn1cnc2c(=O)[nH]c(N)nc21)CCP(=O)(O)O,absorbance,Ki,Hypoxanthine-guanine-xanthine phosphoribosyltransferase,Plasmodium falciparum,-,>250 µM
O=C(/C=C/c1ccc(F)cc1)NCCCCNc1ccnc2cc(Cl)ccc12,fluorescence,IC50,Falcipain-2 (FP2),Plasmodium falciparum,Recombinant,>50 µM
CC(C)C[C@H](NC(=O)[C@@H](O)[C@H](N)Cc1ccccc1)C(=O)O,fluorescence,Ki,PfM1AAP,Plasmodium falciparum,-,1.6 µM
Cc1[nH]nc2c1C(c1cc(Br)cc(C#N)c1)(C(C)C)C(C#N)=C(N)O2,absorbance,IC50,Serine hydroxymethyltransferase,Plasmodium falciparum,-,0.21 µM
Cc1c(-c2ccc(-c3ccc(OC(C)(C)C)cc3)nc2)[nH]c2cc(F)ccc2c1=O,-,IC50,PfNDH2,Plasmodium falciparum,-,0.0047 µM
CN1CCC(NC2=CCC3=NC=C(c4cnn(-c5ccc(F)cc5F)c4)[N+]3=N2)CC1,-,IC50,Calcium-dependent protein kinase 1,Plasmodium falciparum,-,0.203 µM
Cc1ccc(/C=C/C(=O)NCCCCNc2ccnc3cc(Cl)ccc23)cc1,fluorescence,IC50,Falcipain-2 (FP2),Plasmodium falciparum,Recombinant,>50 µM
Cc1[nH]nc2c1C(c1cc(C#N)cc(-c3ccnn3C)c1)(C1CCC1)C(C#N)=C(N)O2,absorbance,IC50,Serine hydroxymethyltransferase,Plasmodium falciparum,-,0.53 µM
CC(C)CCn1cc(C2=CN=C3CC=C(NC4CCN(C)CC4)N=[N+]23)cn1,-,IC50,Calcium-dependent protein kinase 1,Plasmodium falciparum,-,1.5 µM
Cc1[nH]nc2c1C(c1cc(C#N)cc(N3CCCC3=O)c1)(C1CCC1)C(C#N)=C(N)O2,absorbance,Ki,Serine hydroxymethyltransferase,Plasmodium falciparum,-,0.586 µM
Cc1ccc(Cl)c2nc(N3CCN(C(=O)c4ccc([N+](=O)[O-])o4)CC3)sc12,-,IC50,Thioredoxin reductase,Plasmodium berghei,-,<4 µM
CCc1[nH]nc2c1C(c1cc(Cl)cc(Cl)c1)(C1CCC1)C(C#N)=C(N)O2,absorbance,IC50,Serine hydroxymethyltransferase,Plasmodium falciparum,-,0.51 µM
O=C(c1ccc([N+](=O)[O-])o1)N1CCN(c2nc3c(F)cc(F)cc3s2)CC1,-,IC50,Thioredoxin reductase,Plasmodium falciparum,-,5 µM
Cc1[nH]nc2c1C(c1cc(Cl)cc(N3CCOCC3)c1)(C1CCC1)C(C#N)=C(N)O2,absorbance,IC50,Serine hydroxymethyltransferase,Plasmodium falciparum,-,0.48 µM
C=C1C(=O)O[C@H]2C1CC[C@@]1(C)C=CC(=O)C(=C)[C@H]21,LDH,IC50,Lactase dehydrogenase,Plasmodium falciparum,K1,3.516–4.674 µM
Cc1[nH]nc2c1C(c1cc(Cl)cc(Cl)c1)(C(C)C)C(C#N)=C(N)O2,absorbance,Ki,Serine hydroxymethyltransferase,Plasmodium falciparum,-,0.2868 µM
CCCCCCOc1c(OC)cc(NC(C)CCCN)c2nccc(C)c12,nucleotide incorporation,IC50,Hematin,Plasmodium falciparum,-,32 µM
O=c1[nH]cnc2c1ncn2CCOCCP(=O)(O)O,absorbance,Ki,Hypoxanthine-guanine-xanthine phosphoribosyltransferase,Plasmodium falciparum,-,0.3 µM
Cc1[nH]nc2c1C(c1cc(Cl)cc(Cl)c1)(C1CC1)C(C#N)=C(N)O2,absorbance,IC50,Serine hydroxymethyltransferase,Plasmodium falciparum,-,0.38 µM

A second listing of 2 rows from above:

| SMILES | method | read-out | protein | agent | strain or isolate | value |
|---|---|---|---|---|---|---|
| COc1cc(NC(C)CCCN)c2nccc(C)c2c1OCCCCCc1ccccc1 | nucleotide incorporation | IC50 | Hematin | Plasmodium falciparum | - | 100 µM |
| Nc1nc2c(ncn2CCOCCP(=O)(O)O)c(=O)[nH]1 | absorbance | Ki | Hypoxanthine-guanine-xanthine phosphoribosyltransferase | Plasmodium falciparum | - | 0.1 µM |